{"source": "paper PMC4484626", "about": "“Characteristics of oseltamivir-resistant influenza A (H1N1) pdm09 virus during the 2013–2014 influenza season in Mainland China” (Virology Journal, 2015)", "target": "NA of A/California/07/2009 (275H) (Influenza A virus (A/California/07/2009(H1N1)), UniProt C3W6G3)", "details": "read-out: IC50 (nM) / Oseltamivir; fluorogenic substrate of NA-Fluor kit; table prints oseltamivir, tested as carboxylate; reference mean", "data": [{"smiles": "CCC(CC)O[C@@H]1C=C(C(=O)O)C[C@H](N)[C@H]1NC(C)=O", "note": "[Oseltamivir carboxylate]", "values": [{"measurement": "IC50", "result": 0.3, "unit": "nM"}]}]}
